Measured values from paper PMC9104152, “Phosphoproteomics Unravel HBV Triggered Rewiring of Host Phosphosignaling Events” (International Journal of Molecular Sciences, 2022).

B1: O00418 1xPhospho [S445(99.7)] (protein, UniProt O00418 2-725, looked up)
Eukaryotic elongation factor …: ADEDLIFRLEGVDGGQSPRAGHDGDSDGDSDDEEGYFICPITDDPSSNQNVNSKVNKYYSNLTKSERYSSSGSPANSFHFKEAWKHAIQKAKHMPDPWAEFHLEDIATERATRHRYNAVTGEWLDDEVLIKMASQPFGRGAMRECFRTKKLSNFLHAQQWKGASNYVAKRYIEPVDRDVYFEDVRLQMEAKLWGEEYNRHKPPKQVDIMQMCIIELKDRPGKPLFHLEHYIEGKYIKYNSNSGFVRDDNIRLTPQAFSHFTFERSGHQLIVVDIQGVGDLYTDPQIHTETGTDFGDGNLGVRGMALFFYSHACNRICESMGLAPFDLSPRERDAVNQNTKLLQSAKTILRGTEEKCGSPQVRTLSGSRPPLLRPLSENSGDENMSDVTFDSLPSSPSSATPHSQKLDHLHWPVFSDLDNMASRDHDHLDNHRESENSGDSGYPSEKRGELDDPEPREHGHSYSNRKYESDEDSLGSSGRVCVEKWNLLNSSRLHLPRASAVALEVQRLNALDLEKKIGKSILGKVHLAMVRYHEGGRFCEKGEEWDQESAVFHLEHAANLGELEAIVGLGLMYSQLPHHILADVSLKETEENKTKGFDYLLKAAEAGDRQSMILVARAFDSGQNLSPDRCQDWLEALHWYNTALEMTDCDEGGEYDGMQDEPRYMMLAREAEMLFTGGYGLEKDPQRSGDLYTQAAEAAMEAMKGRLANQYYQKAEEAWAQMEE
modifications: phospho S445
B2: O00418 3xPhospho [S470(99.4); S474(100); S477(99.4)] (protein, UniProt O00418 2-725, looked up)
Eukaryotic elongation factor …: B1 Eukaryotic elongation factor …
modifications: phosphorylated S470, S474, S477
B3: B5ME19 1xPhospho [S166(100)] (protein, UniProt B5ME19 1-914, looked up)
Eukaryotic translation …: MSRFFTTGSDSESESSLSGEELVTKPVGGNYGKQPLLLSEDEEDTKRVVRSAKDKRFEELTNLIRTIRNAMKIRDVTKCLEEFELLGKAYGKAKSIVDKEGVPRFYIRILADLEDYLNELWEDKEGKKKMNKNNAKALSTLRQKIRKYNRDFESHITSYKQNPEQSADEDAEKNEEDSEGSSDEDEDEDGVSAATFLKKKSEAPSGESRKFLKKMDDEDEDSEDSEDDEDWDTGSTSSDSDSEEEEGKQTALASRFLKKAPTTDEDKKAAEKKREDKAKKKHDRKSKRLDEEEEEDNEGGEWERVRGGVPLVKEKPKMFAKGTEITHAVVIKKLNEILQARGKKGTDRAAQIELLQLLVQIAAENNLGEGVIVKIKFNIIASLYDYNPNLATYMKPEMWGKCLDCINELMDILFANPNIFVGENILEESENLHNADQPLRVRGCILTLVERMDEEFTKIMQNTDPHSQEYVEHLKDEAQVCAIIERVQRYLEEKGTTEEVCRIYLLRILHTYYKFDYKAHQRQLTPPEGSSKSEQDQAENEGEDSAVLMERLCKYIYAKDRTDRIRTCAILCHIYHHALHSRWYQARDLMLMSHLQDNIQHADPPVQILYNRTMVQLGICAFRQGLTKDAHNALLDIQSSGRAKELLGQGLLLRSLQERNQEQEKVERRRQVPFHLHINLELLECVYLVSAMLLEIPYMAAHESDARRRMISKQFHHQLRVGERQPLLGPPESMREHVVAASKAMKMGDWKTCHSFIINEKMNGKVWDLFPEADKVRTMLVRKIQEESLRTYLFTYSSVYDSISMETLSDMFELDLPTVHSIISKMIINEELMASLDQPTQTVVMHRTEPTAQQNLALQLAEKLGSLVENNERVFDHKQGTYGGYFRDQKDGYRKNEGYMRRGGYRQQQSQTAY
modifications: phosphorylated S166
B4: O60841 1xPhospho [S511(100)] (protein, UniProt O60841 1-1220, looked up)
Eukaryotic translation …: MGKKQKNKSEDSTKDDIDLDALAAEIEGAGAAKEQEPQKSKGKKKKEKKKQDFDEDDILKELEELSLEAQGIKADRETVAVKPTENNEEEFTSKDKKKKGQKGKKQSFDDNDSEELEDKDSKSKKTAKPKVEMYSGSDDDDDFNKLPKKAKGKAQKSNKKWDGSEEDEDNSKKIKERSRINSSGESGDESDEFLQSRKGQKKNQKNKPGPNIESGNEDDDASFKIKTVAQKKAEKKERERKKRDEEKAKLRKLKEKEELETGKKDQSKQKESQRKFEEETVKSKVTVDTGVIPASEEKAETPTAAEDDNEGDKKKKDKKKKKGEKEEKEKEKKKGPSKATVKAMQEALAKLKEEEERQKREEEERIKRLEELEAKRKEEERLEQEKRERKKQKEKERKERLKKEGKLLTKSQREARARAEATLKLLQAQGVEVPSKDSLPKKRPIYEDKKRKKIPQQLESKEVSESMELCAAVEVMEQGVPEKEETPPPVEPEEEEDTEDAGLDDWEAMASDEETEKVEGNKVHIEVKENPEEEEEEEEEEEEDEESEEEEEEEGESEGSEGDEEDEKVSDEKDSGKTLDKKPSKEMSSDSEYDSDDDRTKEERAYDKAKRRIEKRRLEHSKNVNTEKLRAPIICVLGHVDTGKTKILDKLRHTHVQDGEAGGITQQIGATNVPLEAINEQTKMIKNFDRENVRIPGMLIIDTPGHESFSNLRNRGSSLCDIAILVVDIMHGLEPQTIESINLLKSKKCPFIVALNKIDRLYDWKKSPDSDVAATLKKQKKNTKDEFEERAKAIIVEFAQQGLNAALFYENKDPRTFVSLVPTSAHTGDGMGSLIYLLVELTQTMLSKRLAHCEELRAQVMEVKALPGMGTTIDVILINGRLKEGDTIIVPGVEGPIVTQIRGLLLPPPMKELRVKNQYEKHKEVEAAQGVKILGKDLEKTLAGLPLLVAYKEDEIPVLKDELIHELKQTLNAIKLEEKGVYVQASTLGSLEALLEFLKTSEVPYAGINIGPVHKKDVMKASVMLEHDPQYAVILAFDVRIERDAQEMADSLGVRIFSAEIIYHLFDAFTKYRQDYKKQKQEEFKHIAVFPCKIKILPQYIFNSRDPIVMGVTVEAGQVKQGTPMCVPSKNFVDIGIVTSIEINHKQVDVAKKGQEVCVKIEPIPGESPKMFGRHFEATDILVSKISRQSIDALKDWFRDEMQKSDWQLIVELKKVFEII
modifications: phosphorylated S511
B5: Q9UJM3 2xPhospho [T127(99.5); T131(100)] (protein, UniProt Q9UJM3 2-462, looked up)
ERBB receptor feedback …: SIAGVAAQEIRVPLKTGFLHNGRAMGNMRKTYWSSRSEFKNNFLNIDPITMAYSLNSSAQERLIPLGHASKSAPMNGHCFAENGPSQKSSLPPLLIPPSENLGPHEEDQVVCGFKKLTVNGVCASTPPLTPIKNSPSLFPCAPLCERGSRPLPPLPISEALSLDDTDCEVEFLTSSDTDFLLEDSTLSDFKYDVPGRRSFRGCGQINYAYFDTPAVSAADLSYVSDQNGGVPDPNPPPPQTHRRLRRSHSGPAGSFNKPAIRISNCCIHRASPNSDEDKPEVPPRVPIPPRPVKPDYRRWSAEVTSSTYSDEDRPPKVPPREPLSPSNSRTPSPKSLPSYLNGVMPPTQSFAPDPKYVSSKALQRQNSEGSASKVPCILPIIENGKKVSSTHYYLLPERPPYLDKYEKFFREAEETNGGAQIQPLPADCGISSATEKPDSKTKMDLGGHVKRKHLSYVVSP
modifications: phospho T127, T131
B6: P85037 2xPhospho [S213(100); S223(100)] (protein, UniProt P85037 2-733, looked up)
Forkhead box protein K1: AEVGEDSGARALLALRSAPCSPVLCAAAAAAAFPAAAPPPAPAQPQPPPGPPPPPPPPLPPGAIAGAGSSGGSSGVSGDSAVAGAAPALVAAAAASVRQSPGPALARLEGREFEFLMRQPSVTIGRNSSQGSVDLSMGLSSFISRRHLQLSFQEPHFYLRCLGKNGVFVDGAFQRRGAPALQLPKQCTFRFPSTAIKIQFTSLYHKEEAPASPLRPLYPQISPLKIHIPEPDLRSMVSPVPSPTGTISVPNSCPASPRGAGSSSYRFVQNVTSDLQLAAEFAAKAASEQQADTSGGDSPKDESKPPFSYAQLIVQAISSAQDRQLTLSGIYAHITKHYPYYRTADKGWQNSIRHNLSLNRYFIKVPRSQEEPGKGSFWRIDPASEAKLVEQAFRKRRQRGVSCFRTPFGPLSSRSAPASPTHPGLMSPRSGGLQTPECLSREGSPIPHDPEFGSKLASVPEYRYSQSAPGSPVSAQPVIMAVPPRPSSLVAKPVAYMPASIVTSQQPAGHAIHVVQQAPTVTMVRVVTTSANSANGYILTSQGAAGGSHDAAGAAVLDLGSEARGLEEKPTIAFATIPAAGGVIQTVASQMAPGVPGHTVTILQPATPVTLGQHHLPVRAVTQNGKHAVPTNSLAGNAYALTSPLQLLATQASSSAPVVVTRVCEVGPKEPAAAVAATATTTPATATTASASASSTGEPEVKRSRVEEPSGAVTTPAGVIAAAGPQGPGTGE
modifications: phospho S213, S223

Test system: HepG2-NTCP cells
Assay: TMT-based phosphoproteome profiling of HBV-infected vs mock HepG2-NTCP (HBV/mock ratio)
Set-up: species or system human
Settings: phosphosite abundance ratio of host protein, HBV-infected vs mock HepG2-NTCP, 7dpi, sheet Up-regulated

Molecule | HBV/mock
B1 | 1.375
B2 | 1.7
B3 | 1.611
B4 | 1.3
B5 | 1.459
B6 | 1.303
